Anti-infective test results gathered from many reports (values: NIAID ChemDB through PubChem).

Common to all: growth or infection tests; agent: Aspergillus clavatus

Lines come from different laboratories, so protocols vary. An empty or dashed field is not shown. MIC50, MIC90 and the like: level of inhibition, or share of isolates inhibited.

SMILES	endpoint	read by	strain	value
O=C(NN1C(=O)/C(=C/c2cc3ccccc3nc2Cl)N=C1c1ccccc1)c1ccccc1O	MIC	broth dilution	MTCC 1323	500 µg/mL
Cc1ccc2nc(Cl)c(C3SC(=Cc4ccccc4O)C(=O)N3n3c(-c4ccc(Cl)cc4)nc4ccccc4c3=O)cc2c1	MIC99	broth dilution / visual reading	-	100 µg/mL
CCN1CCN(c2nc(Nc3ccc(C(=O)/C=C/c4ccccc4O)cc3)nc3ccccc23)CC1	MIC	agar / visual reading	MTCC 1323	50 µg/mL
CC(=O)Nc1ccc(OCC(=O)N2N=C(c3nc4ccccc4[nH]3)CC2c2ccc([N+](=O)[O-])cc2)cc1	MIC100	-	MTCC 1323	25 µg/mL
O=C1CSC(N2N=C(c3ccc(O)cc3)CC2c2cc3ccccc3nc2Cl)=N1	MIC100	-	MTCC 1323	500 µg/mL
O=C(CSc1nnc(-c2ccc3ncccc3c2)o1)Nc1nc2ccc(Cl)cc2s1	MIC	agar	-	50 µg/mL
Cc1ccc(/C=C2/S/C(=N/NC(=O)c3sc(NC(=O)c4ccc(F)cc4)nc3C)N(c3ccccc3)C2=O)cc1	MIC50	-	MTCC 1323	50 µg/mL
O=C1CSC(N2N=C(c3cccc([N+](=O)[O-])c3)CC2c2cc3ccccc3nc2Cl)=N1	MIC100	-	MTCC 1323	50 µg/mL
Cc1ccc2nc(Cl)c(C3SC(=Cc4cccc(O)c4)C(=O)N3n3c(-c4ccc(Cl)cc4)nc4ccccc4c3=O)cc2c1	MIC99	broth dilution / visual reading	-	200 µg/mL
N#Cc1ccc(Nc2nc(Oc3cccc4cccnc34)nc(N3CCN(c4cccc(Cl)c4Cl)CC3)n2)cc1C(F)(F)F	MIC	agar	MTCC 1323	6.25 µg/mL
CCN1CCN(c2nc(Nc3ccc(C(=O)/C=C/c4cc(C)c(O)c(C)c4)cc3)nc3ccccc23)CC1	MIC	agar / visual reading	MTCC 1323	200 µg/mL
Cc1ccc2nc(Cl)c(C3SC(=Cc4ccc(O)cc4)C(=O)N3n3c(-c4ccc(Cl)cc4)nc4ccccc4c3=O)cc2c1	MIC99	broth dilution / visual reading	-	500 µg/mL
COc1ccccc1/C=C1/S/C(=N/NC(=O)c2sc(NC(=O)c3ccc(F)cc3)nc2C)N(c2ccccc2)C1=O	MIC50	-	MTCC 1323	50 µg/mL
CC(=O)Nc1ccc(OCC(=O)N2N=C(c3nc4ccccc4[nH]3)CC2c2ccccc2Cl)cc1	MIC100	-	MTCC 1323	25 µg/mL
S=C(Nc1ccc(Cl)cc1)Nc1nc(N2CCN(c3ccccc3)CC2)c2ccccc2n1	MIC	agar / visual reading	MTCC 1323	400 µg/mL
N#Cc1ccc(Nc2nc(Oc3cccc4cccnc34)nc(N3CCN(c4ccccn4)CC3)n2)cc1C(F)(F)F	MIC	agar	MTCC 1323	50 µg/mL
COc1ccc(C=C2SC(c3cc4cc(C)ccc4nc3Cl)N(n3c(-c4ccc(Cl)cc4)nc4ccccc4c3=O)C2=O)cc1	MIC99	broth dilution / visual reading	-	200 µg/mL
Cc1ccc(C=NNC(=O)c2cnc3c(ccc4[nH]c(Cl)cc(C)c43)c2=O)cc1	MIC	broth dilution	-	500 µg/mL
Fc1ccc(N2CCN(c3nc(NCCNc4ncnc5c(Br)cc(Br)cc45)nc(NC4CC4)n3)CC2)cc1	MIC	agar	MTCC 1323	50 µg/mL
Cc1ccc(C2C(Cl)C(=O)N2NC(=O)c2cnc3c(ccc4[nH]c(Cl)cc(C)c43)c2=O)cc1	MIC	broth dilution	-	>1000 µg/mL
Cc1cccc(/C=C2/S/C(=N/NC(=O)c3sc(NC(=O)c4ccc(F)cc4)nc3C)N(c3ccccc3)C2=O)c1	MIC50	-	MTCC 1323	250 µg/mL
Cc1ccc2nc(Cl)c(C3SC(=Cc4cccc([N+](=O)[O-])c4)C(=O)N3n3c(-c4ccc(Cl)cc4)nc4ccccc4c3=O)cc2c1	MIC99	broth dilution / visual reading	-	100 µg/mL
CCOC(=O)N1CCN(C(=S)Nc2nc(N3CCN(CC)CC3)c3ccccc3n2)CC1	MIC	agar / visual reading	MTCC 1323	200 µg/mL
Cc1ccc(N2NOC(=O)C2S(=O)(=O)Nc2nc3ccc([N+](=O)[O-])cc3s2)cc1	MIC	broth dilution	MTCC323	250 µg/mL
COc1cccc(C2CC(c3nc4ccccc4[nH]3)=NN2C(=O)COc2ccc(NC(C)=O)cc2)c1	MIC100	-	MTCC 1323	500 µg/mL
Cc1cc(Cl)[nH]c2ccc3c(=O)c(C(=O)NN=Cc4ccccc4O)cnc3c12	MIC	broth dilution	-	500 µg/mL
N#Cc1c(-c2ccc([N+](=O)[O-])cc2)cc(-c2cc3cc(F)ccc3oc2=O)nc1NS(=O)(=O)c1ccccc1	MIC	turbidity	MTCC 1323	100 µg/mL
COc1ccc(C2C(Cl)C(=O)N2NC(=O)c2cnc3c(ccc4[nH]c(Cl)cc(C)c43)c2=O)cc1	MIC	broth dilution	-	>1000 µg/mL
Brc1cc(Br)c2ncnc(NCCNc3nc(NC4CC4)nc(N4CCN(c5ncccn5)CC4)n3)c2c1	MIC	agar	MTCC 1323	12.5 µg/mL
COc1ccc(-c2cc(-c3cc4cc(F)ccc4oc3=O)nc(NS(=O)(=O)c3ccccc3)c2C#N)cc1	MIC	turbidity	MTCC 1323	500 µg/mL
CC(=O)Nc1ccc(OCC(=O)N2N=C(c3nc4ccccc4[nH]3)CC2c2ccccc2C)cc1	MIC100	-	MTCC 1323	250 µg/mL
Cc1cccc(-c2cc(-c3cc4cc(F)ccc4oc3=O)nc(NS(=O)(=O)c3ccccc3)c2C#N)c1	MIC	turbidity	MTCC 1323	500 µg/mL
N#Cc1ccc(Nc2nc(Oc3ncnc4ccccc34)nc(N3CCCCC3)n2)cc1C(F)(F)F	MIC	-	MTCC 1323	>100 µg/mL
Cc1nc(NC(=O)c2ccc(F)cc2)sc1C(=O)N/N=C1/S/C(=C/c2ccc(F)cc2)C(=O)N1c1ccccc1	MIC50	-	MTCC 1323	1000 µg/mL
O=C(CSc1nnc(-c2ccc3ncccc3c2)o1)Nc1ccc([N+](=O)[O-])cc1	MIC	agar	-	25 µg/mL
N#Cc1ccc(Nc2nc(Oc3cccc4cccnc34)nc(N3CCOCC3)n2)cc1C(F)(F)F	MIC	agar	MTCC 1323	25 µg/mL
COc1ccc(-c2nc3ccccc3c(=O)n2-c2ccc(NS(=O)(=O)C3C(=O)ONN3c3ccc(C)cc3)cc2)cc1[N+](=O)[O-]	MIC	broth dilution	MTCC323	>1000 µg/mL
Brc1cc(Br)c2ncnc(NCCNc3nc(NC4CC4)nc(N4CCC(Cc5ccccc5)CC4)n3)c2c1	MIC	agar	MTCC 1323	100 µg/mL
CC(=O)Nc1ccc(OCC(=O)N2N=C(c3nc4ccccc4[nH]3)CC2c2ccccc2F)cc1	MIC100	-	MTCC 1323	12.5 µg/mL
O=C(NN1C(=O)/C(=C/c2cc3ccccc3nc2Cl)N=C1c1ccccc1)c1ccccc1	MIC	broth dilution	MTCC 1323	1000 µg/mL
O=C(CSc1nnc(-c2ccc3ncccc3c2)o1)Nc1nc2ccc(Br)cc2s1	MIC	agar	-	50 µg/mL
COc1cccc(/C=C2/S/C(=N/NC(=O)c3sc(NC(=O)c4ccc(F)cc4)nc3C)N(c3ccccc3)C2=O)c1	MIC50	-	MTCC 1323	100 µg/mL
O=C1CSC(N2N=C(c3ccc([N+](=O)[O-])cc3)CC2c2cc3ccccc3nc2Cl)=N1	MIC100	-	MTCC 1323	12.5 µg/mL
O=C(CSc1nnc(-c2ccc3ncccc3c2)o1)Nc1nc2ccccc2s1	MIC	agar	-	100 µg/mL
CCN1CCN(c2nc(NC(=S)N3CCN(Cc4ccc(OC)c(OC)c4OC)CC3)nc3ccccc23)CC1	MIC	agar / visual reading	MTCC 1323	100 µg/mL
Cc1nc(NC(=O)c2ccc(F)cc2)sc1C(=O)N/N=C1/S/C(=C/c2ccc(O)cc2)C(=O)N1c1ccccc1	MIC50	-	MTCC 1323	250 µg/mL
N#Cc1ccc(Nc2nc(Oc3ncnc4ccccc34)nc(N3CCN(c4ncccn4)CC3)n2)cc1C(F)(F)F	MIC	-	MTCC 1323	>100 µg/mL
CC(=O)Nc1ccc(NC(=O)CSc2nnc(-c3ccc4ncccc4c3)o2)cc1	MIC	agar	-	50 µg/mL
Cc1ccc(N2NOC(=O)C2S(=O)(=O)Nc2ccc(-n3c(-c4ccccc4[N+](=O)[O-])nc4ccccc4c3=O)cc2)cc1	MIC	broth dilution	MTCC323	1000 µg/mL
CC(=O)Nc1ccc(OCC(=O)N2N=C(c3nc4ccccc4[nH]3)CC2c2ccccc2Br)cc1	MIC100	-	MTCC 1323	50 µg/mL
Cc1cc(Cl)[nH]c2ccc3c(=O)c(C(=O)NN=Cc4ccccc4Cl)cnc3c12	MIC	broth dilution	-	>1000 µg/mL
O=C(NN1C(=O)/C(=C/c2cc3ccccc3nc2Cl)N=C1c1ccccc1)c1cc(Cl)ccc1Cl	MIC	broth dilution	MTCC 1323	500 µg/mL
Cc1ccc(-c2cc(-c3cc4cc(F)ccc4oc3=O)nc(NS(=O)(=O)c3ccccc3)c2C#N)cc1	MIC	turbidity	MTCC 1323	100 µg/mL
CC1=C(Cl)C(O)=CC(=O)C12Oc1cc(O)c(Cl)c(C)c1C2=O	MIC	broth dilution	MTCC 1323	100 µg/mL
COc1ccc(-c2nc3ccccc3c(=O)n2-c2ccc(NS(=O)(=O)C3C(=O)ONN3c3ccc(C)cc3)cc2)cc1	MIC	broth dilution	MTCC323	250 µg/mL
N#Cc1ccc(Nc2nc(Oc3cccc4cccnc34)nc(N3CCN(c4ncccn4)CC3)n2)cc1C(F)(F)F	MIC	agar	MTCC 1323	12.5 µg/mL
O=C1CSC(N2N=C(c3ccccc3F)CC2c2cc3ccccc3nc2Cl)=N1	MIC100	-	MTCC 1323	100 µg/mL
CCN1CCN(c2nc(Nc3ccc(C#N)c(C(F)(F)F)c3)nc(Oc3ncnc4ccccc34)n2)CC1	MIC	-	MTCC 1323	>100 µg/mL
CC(=O)Nc1ccc(OCC(=O)N2N=C(c3nc4ccccc4[nH]3)CC2c2cccc([N+](=O)[O-])c2)cc1	MIC100	-	MTCC 1323	250 µg/mL
O=C(CSc1nnc(-c2ccc3ncccc3c2)o1)Nc1nc2ccc([N+](=O)[O-])cc2s1	MIC	agar	-	25 µg/mL
CN1CCN(c2nc(Nc3ccc(C#N)c(C(F)(F)F)c3)nc(Oc3ncnc4ccccc34)n2)CC1	MIC	-	MTCC 1323	>100 µg/mL
COc1cc(C=C2SC(c3cc4cc(C)ccc4nc3Cl)N(n3c(-c4ccc(Cl)cc4)nc4ccccc4c3=O)C2=O)cc(OC)c1OC	MIC99	broth dilution / visual reading	-	500 µg/mL

The last 6 rows once more:

SMILES,endpoint,read by,strain,value
O=C1CSC(N2N=C(c3ccccc3F)CC2c2cc3ccccc3nc2Cl)=N1,MIC100,-,MTCC 1323,100 µg/mL
CCN1CCN(c2nc(Nc3ccc(C#N)c(C(F)(F)F)c3)nc(Oc3ncnc4ccccc34)n2)CC1,MIC,-,MTCC 1323,>100 µg/mL
CC(=O)Nc1ccc(OCC(=O)N2N=C(c3nc4ccccc4[nH]3)CC2c2cccc([N+](=O)[O-])c2)cc1,MIC100,-,MTCC 1323,250 µg/mL
O=C(CSc1nnc(-c2ccc3ncccc3c2)o1)Nc1nc2ccc([N+](=O)[O-])cc2s1,MIC,agar,-,25 µg/mL
CN1CCN(c2nc(Nc3ccc(C#N)c(C(F)(F)F)c3)nc(Oc3ncnc4ccccc34)n2)CC1,MIC,-,MTCC 1323,>100 µg/mL
COc1cc(C=C2SC(c3cc4cc(C)ccc4nc3Cl)N(n3c(-c4ccc(Cl)cc4)nc4ccccc4c3=O)C2=O)cc(OC)c1OC,MIC99,broth dilution / visual reading,-,500 µg/mL